Experimental data taken from PubChem BioAssay AID588436 (Broad Institute, 2011).
Only a part is listed here, and it is no random draw. The source made the active and inactive calls. Cut-off read from the data, not from the text of the source: active = activation mostly above about 9.7% (no sharp cut-off); inconclusive = no clear call, values can overlap the other calls; inactive = mostly below about 3.7%.

Assay: induces V. cholerae light production without autoinducers, primary screen, BH1578 luxS cqsA deficient, single point (AID 588436)
Conditions: V. cholerae BH1578 lux reporter, luminescence, 6 h, at 18.7 µM; hits give high values

Structure (SMILES)	activation
COc1cc(C(=O)NCC2(N(C)C)CCCCC2)ccc1OC(F)F	inactive: -0.546%
CCOC(=O)N1CCC(Nc2cccc(C)c2)CC1	inactive: -0.316%
O=C(NCC1(N2CCCCC2)CCCCC1)c1ccc(F)cc1	inactive: -0.399%
O=P1(N(CCCl)CCCl)SCCCS1	inactive
CCCCOc1ccc(C(=O)NCC2(N3CCOCC3)CCCCC2)cc1	inactive: -1.01%
COc1ccc(NC2CCN(CCc3ccccc3)CC2)c(OC)c1	inactive: -4.17%
CCOC(=O)N1CCC(Nc2ccc(F)cc2)CC1	inactive: -2.33%
CCOc1ccc(C)cc1CN(CCCl)CCCl	inactive
O=C1CCN(Cc2ccccc2)CC1	inactive: -0.238%
CCOC(=O)N1CCC(Nc2ccc(OC)cc2)CC1	inactive: -0.324%
O=C(OC1CN2CCC1CC2)C1c2ccccc2Oc2ccccc21 (centres undefined)	inactive: -0.893%
N#CC1(Nc2ccccc2)CCN(Cc2ccccc2)CC1	inactive: -0.006%
O=C(NCC1(N2CCCCC2)CCCCC1)c1ccc(Cl)s1	inactive
COc1ccc(Cl)cc1C(=O)NCC1(N2CCOCC2)CCCCC1	inactive
O=C(NCC1(N2CCOCC2)CCCCC1)c1cc2ccccc2o1	inactive: -3.45%
O=C(NCC1(N2CCCCC2)CCCCC1)c1ccc(Cl)nc1	inactive: 0.917%
Cc1cc(C)cc(N(C(=O)c2ccccc2)C2CCN(C(=O)OC(C)(C)C)CC2)c1	inactive: -7.69%
CSc1ccccc1C(=O)NCC1(N2CCCCC2)CCCCC1	inactive
Cc1cccc(NC2(C#N)CCN(Cc3ccccc3)CC2)c1	inactive: -0.8%
O=C(NCC1(N2CCCCC2)CCCCC1)c1ccc(=O)[nH]c1	inactive: -0.358%
O=C(NCC1(N2CCCCC2)CCCCC1)c1cccs1	inactive
COc1ccc(C(=O)NCC2(N3CCCCC3)CCCCC2)cc1	inactive: -0.488%
CC(C)(C)OC(=O)N1CCC(N(C(=O)c2ccccc2)c2ccc(F)cc2)CC1	inactive: 0.806%
COc1ccc(C(=O)NCC2(N3CCCCC3)CCCCC2)c(OC)c1OC	inactive
Cc1ccc(C(=O)NCC2(N(C)C)CCCCC2)o1	inactive: 0.459%

Structure (SMILES)	activation
CCCOc1ccc(C(=O)NCC2(N(C)C)CCCCC2)cc1OC	inactive
O=C(NCC1(N2CCCCC2)CCCCC1)c1cncc(Br)c1	inactive: -3.73%
CN1CCC(Nc2cccc(F)c2)CC1	inactive: 0.746%
COc1cc(OC)c(C(=O)NCC2(N(C)C)CCCCC2)cc1OC	inactive
O=C(NCC1(N2CCOCC2)CCCCC1)c1cc(F)c(F)cc1Cl	inactive
COc1ccc(CN(CCCl)CCCl)cc1Cl	inactive: -0.53%
CN(C)c1cccc(C(=O)NCC2(N3CCCCC3)CCCCC2)c1	inactive: -0.603%
CC(C)c1ccc(NC2CCN(C(=O)OC(C)(C)C)CC2)cc1	inactive: -1.14%
CN1CCN(CCOC(=O)C(O)(c2ccccc2)c2ccccc2)CC1	inactive
CC(C)c1ccc(C(=O)NCC2(N3CCOCC3)CCCCC2)cc1	inactive: -1.82%
COc1ccc(NC2CCN(C(=O)OC(C)(C)C)CC2)cc1	inactive
COc1cc(C(=O)NCC2(N3CCCCC3)CCCCC2)ccc1OC(F)F	inactive: -0.002%
O=C(NCC1(N2CCOCC2)CCCCC1)c1cc(=O)[nH]c2ccccc12	inactive
O=C(NCC1(N2CCCCC2)CCCCC1)c1cccc(C(F)(F)F)c1	inactive: -0.284%
CSc1ccc(C(=O)NCC2(N3CCOCC3)CCCCC2)cc1	inactive: -4.79%
CCN1CCC(Nc2ccc(Cl)cc2)CC1	inactive
N#CC1(Nc2ccccc2)CCN(CCc2ccccc2)CC1	inactive
O=C(NCC1(N2CCCCC2)CCCCC1)c1ccc(OC(F)F)cc1	inactive: -0.438%
c1ccc(CN2CCC(Nc3ccccc3)CC2)cc1	inactive: -0.623%
Cc1cc(N(CCCl)CCCl)ccc1C=O	inactive: 5.56%
CCCN1CCC(Nc2cc(OC)cc(OC)c2)CC1	inactive
CN(C)C1(CNC(=O)c2cccc(C#N)c2)CCCCC1	inactive: -7.69%
CC(C)(C)OC(=O)N1CCC(N(C(=O)c2ccccc2)c2ccc(Cl)cc2)CC1	inactive: -0.101%
N#Cc1ccc(C(=O)NCC2(N3CCCCC3)CCCCC2)cc1	inactive: -0.292%
O=C(OC1CN2CCC1CC2)C1c2ccccc2C=Cc2ccccc21 (centres undefined)	inactive: -0.343%

Structure (SMILES)	activation
N/C(=N\O)c1c(N)no[n+]1[O-]	inactive: -0.286%
CCOC(=O)N1CCC(Nc2ccc(C)cc2)CC1	inactive: 0.477%
COc1ccc(C(=O)NCC2(N3CCOCC3)CCCCC2)cc1OC	inactive: -0.207%
O=C(NCC1(N2CCOCC2)CCCCC1)c1cc(Br)ccc1Cl	inactive
COc1cc(C(=O)NCC2(N3CCOCC3)CCCCC2)cc(OC)c1C	inactive
CN1CCC(Nc2ccc(Cl)cc2)CC1	inactive
CCC(CO)(C(=O)OC1CN2CCC1CC2)c1ccccc1 (centres undefined)	inactive
COc1cc(OC)cc(C(=O)NCC2(N3CCOCC3)CCCCC2)c1	inactive: -0.412%
COc1cccc(C(=O)N(c2cc(C)cc(C)c2)C2CCN(C(=O)OC(C)(C)C)CC2)c1	inactive: -10%
CCCOc1ccc(C(=O)NCC2(N(C)C)CCCCC2)cc1	inactive
CC(C)(C)OC(=O)N1CCC(Nc2ccccc2)CC1	inactive
O=C(O)C1(Nc2ccccc2)CCN(Cc2ccccc2)CC1	inactive: -1.35%
CCOc1ncccc1C(=O)NCC1(N2CCOCC2)CCCCC1	inactive: -0.198%
CN1CCC(Nc2ccc(F)c(Cl)c2)CC1	inactive: -1.2%
O=C(NCC1(N2CCCCC2)CCCCC1)c1ccco1	inactive: -0.295%
Cn1c(=O)[nH]cc(N(CCCl)CCCl)c1=O	inactive: 0.834%
CN(C)c1ccc(C(=O)NCC2(N3CCCCC3)CCCCC2)cc1	inactive: -0.335%
Cc1ccccc1NC1(C#N)CCN(Cc2ccccc2)CC1	inactive: -1.28%
CCN1CCC(Nc2cccc(F)c2)CC1	inactive: -0.213%
Cc1ccc(NC2(C#N)CCN(Cc3ccccc3)CC2)cc1	inactive: 0.8%
Cc1ccc(C(=O)NCC2(N3CCCCC3)CCCCC2)o1	inactive
Fc1ccccc1NC1CCN(Cc2ccccc2)CC1	inactive
COc1cc(OC)cc(C(=O)NCC2(N3CCCCC3)CCCCC2)c1	inactive
CC(=O)N(c1ccccc1)C1CCNCC1	inactive
